Results of unrelated studies side by side (data: NIAID ChemDB).

All rows: tests in culture; agent: Herpes simplex virus 2

Neighbouring rows are from separate reports.

SMILES,cells,strain or isolate,method,endpoint,result
Nc1nc2c(ncn2C[C@H](CF)OCP(=O)(O)O)c(=O)[nH]1,E6SM,G 196 LYONS,cytopathic effect,EC50,165 µM
CC1(C)[C@@H](CO)CC[C@@]1(C)Cn1ccc(=O)[nH]c1=O,E6SM,G,cytopathic effect,EC50,>400 µg/mL
CC1(CO)CCC(Cn2nnc3c(Cl)nc(N)nc32)C1(C)C,E6SM,G,cytopathic effect,EC50,>100 µg/mL
COC(=O)[C@]1(C)CCC[C@]2(C)c3cc(Br)c4nc[nH]c4c3CCC12,E6SM,,plaque count,EC50,>4 µg/mL
Cc1cc(C)c(OC(=O)c2ccc(Cl)cc2)c(=O)c(C)c1,VERO,Clinical isolate,plaque count,EC50,4.12 µM
Nc1nc(N)c2ncn(C[C@H](CF)OCP(=O)(O)O)c2n1,E6SM,G 196 LYONS,cytopathic effect,EC50,>600 µM
Nc1nc(=S)n([C@@H]2O[C@H](CO)[C@@H](O)[C@@H]2O)cc1F,,LYON,,EC50,0.16 µg/mL
CC/C=C/C/C=C/C/C=C/CCCCCCCC(=O)OC[C@H](CO[C@@H]1O[C@H](CO)[C@@H](O)[C@H](O)[C@H]1O)OC(=O)CCCCCCC/C=C/C/C=C/C/C=C/CC,VERO,186,plaque count,EC50,18.5 µg/mL
Cc1cn([C@@H]2O[C@H](CO)[C@@H](O)[C@@H]2O)c(=O)[nH]c1=O,HELF,UW-268,cytopathic effect,EC50,1 µg/mL
Nc1nccc2c1ncn2[C@@H]1C[C@H](CO)[C@@H](O)[C@H]1O,,Strain G,cytopathic effect,EC50,>400 µg/mL
Nc1nc2c(ncn2COCCO)c(=O)[nH]1,HFF,,plaque count,EC50,3.5 µM
CC1(C)[C@@H](CO)CC[C@@]1(C)Cn1cnc2c(Cl)ncnc21,E6SM,G,cytopathic effect,EC50,>400 µg/mL
Cc1cn(C(CCN=[N+]=[N-])OCCO)c(=O)[nH]c1=O,HFF,,cytopathic effect,EC50,>200 µM
CCCCC/C=C\C/C=C\CCCCCCCC(=O)OCC(CO[C@@H]1O[C@H](CO)[C@H](O)[C@H](O)[C@H]1O)OC(=O)CCCCCCC/C=C\C/C=C\CCCCC,VERO,186,plaque count,EC50,50 µg/mL
Nc1nc(Cl)c2ncn([C@@H](CCO)OCCO)c2n1,HFF,,cytopathic effect,EC50,>200 µM
CC(C)=CCCC(CO)C1CCC2C3CC=C4C[C@H](O)[C@@H](O)CC4(C)C3CCC12C,VERO,TYPE G,plaque count,EC50,17.5 µg/mL
Nc1ncnc2c1ncn2C[C@@H](CO)OCP(=O)(O)O,E6SM,G 196 LYONS,cytopathic effect,EC50,1.5 µM
Nc1nc2c(ncn2COCCO)c(=O)[nH]1,HFF,V60780 (acyclovir-resistant),cytopathic effect,EC50,>50 µg/mL
O=c1[nH]c(=O)n([C@H]2CC[C@@H](CO)O2)cc1/C=C/Br,PRK,LYONS,cytopathic effect,EC50,1 µg/mL
COC(=O)[C@]1(C)CCC[C@]2(C)c3ccc4nc(-c5ccccc5)c(-c5ccccc5)nc4c3CCC12,E6SM,,plaque count,EC50,>4 µg/mL
C=C1[C@H](CO)[C@@H](O)C[C@@H]1n1cnc2c(=O)[nH]c(N)nc21,WI-38,,plaque count,EC50,6 µM
O=c1[nH]c(=O)n([C@H]2C[C@H](O)[C@@H](CO)O2)cc1I,,E304,,MIC,11 µg/mL
Nc1nc2c(ncn2C[C@]2(CO)C[C@H]2CO)c(=O)[nH]1,,186,plaque count,EC50,0.24 µg/mL
CCCCCCCCCCCCCCCCCCCCCC(=O)OCC(CO[C@@H]1O[C@H](CO)[C@@H](O)[C@H](O)[C@H]1O)OC(=O)CCCCCCCCCCCCC,VERO,186,plaque count,EC50,>50 µg/mL
Nc1nc2c(ncn2[C@@H](CCO)SCCO)c(=O)[nH]1,HFF,,cytopathic effect,EC50,>200 µM
Nc1nc(N)c2ncn(C[C@@H](CO)OCP(=O)(O)O)c2n1,E6SM,G 196 LYONS,cytopathic effect,EC50,1 µM
CC(C)=CCC[C@@H](COS(=O)(=O)O)C1CCC2C3CC[C@H]4C[C@H](OS(=O)(=O)O)[C@@H](O)CC4(C)C3CCC21C,VERO,TYPE G,plaque count,EC50,24.3 µg/mL
Nc1ncnc2c1ncn2CCCC(O)CF,ESM,G,cytopathic effect,EC50,>400 µg/mL
CC(=O)OC[C@H]1[C@H](COC(C)=O)[C@@H](CO)O[C@H]1n1cnc2c(N)ncnc21,MEF,X-79,plaque count,EC50,238 µM
Nc1nc(N)c2ncn(C[C@H](CO)OCP(=O)(O)O)c2n1,E6SM,G 196 LYONS,cytopathic effect,EC50,6.3 µM
Nc1nc2c(ncn2COC(CO)CO)c(=O)[nH]1,VERO,,cytopathic effect,EC50,0.55 µg/mL
CCCCCCCCCCCCCCCCCC(=O)OCC(CO[C@@H]1O[C@H](CO)[C@@H](O)[C@H](O)[C@H]1O)OC(=O)CCCCCCCCCCC,VERO,186,plaque count,EC50,>50 µg/mL
O=C1O[C@H]2[C@@H]3OC(=O)c4cc(c(O)c(O)c4O)-c4c(cc(Oc5c(C(=O)O[C@H]6[C@H](OC(=O)c7cc(O)c(O)c(O)c7)OC7COC(=O)c8cc(O)c(O)c(O)c8-c8c(cc(O)c(O)c8O)C(=O)O[C@H]6C7OC(=O)c6cc(O)c(O)c(O)c6)cc(O)c(O)c5O)c(O)c4O)C(=O)OC[C@H]2O[C@@H](OC(=O)c2cc(O)c(O)c(O)c2)[C@@H]3OC(=O)c2cc(O)c(O)c3c2[C@@H]2C1=CC(=O)[C@@](O)(O3)C2(O)O,,,,EC50,11.87 µM
Nc1ccn(CCCC(O)CF)c(=O)n1,ESM,G,cytopathic effect,EC50,>400 µg/mL
Nc1ncnc2c1ncn2[C@@H]1C=C[C@@H](O)[C@H]1O,,G,,MIC,300 µg/mL
Nc1nc2c(ncn2CCC(CO)CO)c(=O)[nH]1,MRC-5,Clinical isolate,plaque count,EC50,1.2 µg/mL
O=c1[nH]c(=S)n([C@H]2C[C@H](O)[C@@H](CO)O2)cc1Br,MRC-5,G,plaque count,EC50,1.4 µM
COC(CI)c1cc([C@H]2C[C@H](O)[C@@H](CO)O2)c(F)cc1F,E6SM,G,cytopathic effect,EC50,>80 µg/mL
CC(C)=CCc1ccc(O)c(=O)cc1C(C)C,HFF,Clinical isolate,plaque count,EC50,1.23 µM
CS/C=C/C(=O)NCCCCNC(=O)/C=C/SC,,,plaque count,EC50,>20 µg/mL
Nc1nc(=S)n([C@@H]2O[C@H](CO)[C@@H](O)[C@@H]2O)cc1Cl,MRC-5,G,plaque count,EC50,>341 µM
COC(=O)[C@]1(C)CCC[C@]2(C)c3ccc4[nH]c(C(F)(F)F)nc4c3CCC12,E6SM,,plaque count,EC50,>4 µg/mL
Cn1cc(C(=O)NCc2ccc(Cl)cc2)c(=O)c2cc(CN3CCOCC3)ccc21,,3 isolates,plaque count,EC50,3.4 µM
Nc1nccc2c1ncn2[C@@H]1C[C@H](CO)[C@@H](O)[C@H]1O,,G,,MIC,>400 µg/mL
CC1(CO)CCC(Cn2cnc3c(N)nc(N)nc32)C1(C)C,E6SM,G,cytopathic effect,EC50,150 µg/mL
CC(C)Nc1nc2cc(Cl)c(Cl)cc2n1[C@H]1O[C@@H](CO)[C@H](O)[C@@H]1O,HFF,,plaque count,EC50,>53 µM
OC[C@H]1O[C@@H](c2cc(C(O)C(I)I)c(F)cc2F)C[C@@H]1O,E6SM,G,cytopathic effect,EC50,>80 µg/mL
CC(C)c1ccc(O)c(O)c(=O)c1,VERO,Clinical isolate,plaque count,EC50,1.69 µM
Nc1nc2c(ncn2C[C@@H](CO)OCP(=O)(O)O)c(=O)[nH]1,E6SM,G 196 LYONS,cytopathic effect,EC50,1.9 µM
COc1nc(N)nc2c1ncn2/C=C1/C[C@@H]1CO,HFF,,plaque count,EC50,73 µM
Nc1ccn(C[C@@H](CO)OCP(=O)(O)O)c(=O)n1,MRC-5,MS (WILD TYPE),plaque count,EC50,9.1 µM
NC1=NC2C(C=CN2CC(CO)CCO)C(=O)N1,VERO,G,cytopathic effect,EC50,11.3 µg/mL
Nc1nc(=S)n([C@@H]2O[C@H](CO)[C@@H](O)[C@@H]2O)cc1I,MRC-5,G,plaque count,EC50,26 µM
CC1(C)[C@@H](CO)CC[C@@]1(C)Cn1nnc2c(N)ncnc21,E6SM,G,cytopathic effect,EC50,>400 µg/mL
Cc1cn(CCCC(O)CF)c(=O)[nH]c1=O,ESM,G,cytopathic effect,EC50,>400 µg/mL
CC1(CO)CCC(Cn2cnc3c(=O)[nH]c(N)nc32)C1(C)C,E6SM,G,cytopathic effect,EC50,>400 µg/mL
CC(C)CCCC(COS(=O)(=O)O)C1CCC2C3CC=C4C[C@H](O)[C@@H](OS(=O)(=O)O)CC4(C)C3CCC12C,VERO,G,plaque count,EC50,18.4 µg/mL

Repeating the first 8 entries:

SMILES	cells	strain or isolate	method	endpoint	result
Nc1nc2c(ncn2C[C@H](CF)OCP(=O)(O)O)c(=O)[nH]1	E6SM	G 196 LYONS	cytopathic effect	EC50	165 µM
CC1(C)[C@@H](CO)CC[C@@]1(C)Cn1ccc(=O)[nH]c1=O	E6SM	G	cytopathic effect	EC50	>400 µg/mL
CC1(CO)CCC(Cn2nnc3c(Cl)nc(N)nc32)C1(C)C	E6SM	G	cytopathic effect	EC50	>100 µg/mL
COC(=O)[C@]1(C)CCC[C@]2(C)c3cc(Br)c4nc[nH]c4c3CCC12	E6SM		plaque count	EC50	>4 µg/mL
Cc1cc(C)c(OC(=O)c2ccc(Cl)cc2)c(=O)c(C)c1	VERO	Clinical isolate	plaque count	EC50	4.12 µM
Nc1nc(N)c2ncn(C[C@H](CF)OCP(=O)(O)O)c2n1	E6SM	G 196 LYONS	cytopathic effect	EC50	>600 µM
Nc1nc(=S)n([C@@H]2O[C@H](CO)[C@@H](O)[C@@H]2O)cc1F		LYON		EC50	0.16 µg/mL
CC/C=C/C/C=C/C/C=C/CCCCCCCC(=O)OC[C@H](CO[C@@H]1O[C@H](CO)[C@@H](O)[C@H](O)[C@H]1O)OC(=O)CCCCCCC/C=C/C/C=C/C/C=C/CC	VERO	186	plaque count	EC50	18.5 µg/mL

ECn is the concentration giving n% inhibition of infection, replication or growth. An empty or dashed field is not shown.